# Assay results taken from PMC7473772 (eLife, 2020).
# How the values were obtained:
# Experiment in all cases: Drug sensitivity assay (resazurin)
# Assay type in all cases: cell-based, Trypanosoma brucei brucei
# [1] = system: tbaqp2/tbaqp3 null cells; settings: for EC50 as percent of AQP2/3 null EC50, MEAN / EC50 as percent of AQP2/3 null EC50, single repeats: dKO AQP2/3 cells
# [2] = system: tbaqp2/tbaqp3 null cells expressing TbAQP3; settings: Fig. 2H; AQP3-WT cells
# [3] = system: tbaqp2/tbaqp3 null cells expressing TbAQP2^I190T/W192G; settings: Fig. 3D, row printed I190T/W192T
# [4] = system: tbaqp2/tbaqp3 null cells expressing TbAQP2^L258Y
# [5] = system: tbaqp2/tbaqp3 null cells expressing TbAQP2^I110W
# [6] = system: tbaqp2/tbaqp3 null cells expressing TbAQP2 L218M
# [7] = system: tbaqp2/tbaqp3 null cells expressing TbAQP2^L264R
# [8] = system: tbaqp2/tbaqp3 null cells expressing TbAQP2 L118W
# [9] = system: tbaqp2/tbaqp3 null cells expressing TbAQP2 L84M
# [10] = system: tbaqp2/tbaqp3 null cells expressing TbAQP2WT; settings: for EC50 as percent of AQP2/3 null EC50, MEAN: +AQP2 cells
# [11] = system: tbaqp2/tbaqp3 null cells expressing TbAQP3^W102I/R256L; settings: Fig. 2H; AQP3 W102I/R256L cells
# [12] = system: tbaqp2/tbaqp3 null cells expressing TbAQP2 L218W
# [13] = system: tbaqp2/tbaqp3 null cells expressing TbAQP2 L118M
# [14] = system: tbaqp2/tbaqp3 null cells expressing TbAQP2 L84W
# [15] = system: tbaqp2/tbaqp3 null cells expressing TbAQP2^I190T; settings: Fig. 3B
# [16] = system: tbaqp2/tbaqp3 null cells expressing TbAQP2^S131P/S263A
# [17] = system: tbaqp2/tbaqp3 null cells expressing TbAQP3^W102I/R256L/Y250L; settings: Fig. 2H; AQP3 W102I/Y250L/R256L cells
# [18] = system: tbaqp2/tbaqp3 null cells expressing TbAQP2^W192G; settings: Fig. 3C
# [19] = system: tbaqp2/tbaqp3 null cells expressing TbAQP2^I110W/L264R; settings: Fig. 2F
# [20] = Fig. 2H, AQP3 W102I/Y250L/R256L set
# [21] = Fig. 3D, TbAQP2(I190T/W192G) set
# [22] = read-out: EC50, MEAN, L-->M mutations series
# [23] = L-->W mutations series, 3 repeats
# [24] = read-out: EC50, MEAN, L-->W mutations series, 3 repeats
# [25] = read-out: EC50, single repeats, L-->W mutations series
structure (smiles),measurement,setting,value
O=[As]c1ccccc1 (centres unmarked),"EC50, MEAN (% KO)","[1]; AQKO, L-->M mutations series",100.00 % KO
same,"EC50 (% of aqp2/aqp3 null), MEAN","[1]; AQKO, L-->W mutations series, 3 repeats",100.00 % of aqp2/aqp3 null
same,"EC50 as percent of AQP2/3 null EC50, MEAN","[1]; Fig. 2F, I110W/L264R set",100.00%
same,"EC50 as percent of AQP2/3 null EC50, single repeats","[1]; Fig. 2F, I110W/L264R set",100%
same,"EC50 as percent of AQP2/3 null EC50, MEAN","[1]; Fig. 2H, AQP3-WT set",100.00%
same,"EC50 as percent of AQP2/3 null EC50, single repeats","[1]; Fig. 2H, AQP3-WT set",100.0%
same,"EC50 as percent of AQP2/3 null EC50, MEAN","[1]; Fig. 2H, AQP3 W102I/R256L set",100.00%
same,"EC50 as percent of AQP2/3 null EC50, single repeats","[1]; Fig. 2H, AQP3 W102I/R256L set",100.0%
same,"EC50 as percent of AQP2/3 null EC50, MEAN",[1]; [20],100.00%
same,"EC50 as percent of AQP2/3 null EC50, single repeats",[1]; [20],100%
same,"EC50 as percent of AQP2/3 null EC50, MEAN","[1]; Fig. 3B, TbAQP2(I190T) set",100.000%
same,"EC50 as percent of AQP2/3 null EC50, single repeats","[1]; Fig. 3B, TbAQP2(I190T) set",100.0%
same,"EC50 as percent of AQP2/3 null EC50, MEAN","[1]; Fig. 3C, TbAQP2(W192G) set",100.00%
same,"EC50 as percent of AQP2/3 null EC50, single repeats","[1]; Fig. 3C, TbAQP2(W192G) set",100.0%
same,"EC50 as percent of AQP2/3 null EC50, MEAN",[1]; [21],100.00%
same,"EC50 as percent of AQP2/3 null EC50, single repeats",[1]; [21],100.0%
same,"EC50, percent of AQP2/3 null EC50","[1]; dKO AQP2/3 (resistant control, set to 100)",100.00%
same,EC50,"[1]; read-out: EC50, MEAN, AQKO, L-->M mutations series",3.76 nM
same,EC50,"[1]; read-out: EC50, MEAN, AQKO, L-->W mutations series, 3 repeats",1.77 nM
same,EC50,"[1]; read-out: EC50, single repeats, AQKO, L-->W mutations series",2.01 nM and 2.02 nM and 1.29 nM
same,"EC50 as percent of AQP2/3 null EC50, MEAN",[2],91.77%
same,"EC50 as percent of AQP2/3 null EC50, MEAN",[3],84.41%
same,"EC50, percent of AQP2/3 null EC50",[4],90.94%
same,"EC50, percent of AQP2/3 null EC50",[5],103.34%
same,"EC50, MEAN (% KO)",[6]; L-->M mutations series,71.30 % KO
same,EC50,[6]; [22],3.53 nM
same,"EC50, percent of AQP2/3 null EC50",[7],98.45%
same,"EC50 (% of aqp2/aqp3 null), MEAN",[8]; [23],93.74 % of aqp2/aqp3 null
same,EC50,[8]; [24],1.66 nM
same,EC50,[8]; [25],1.9 nM and 1.95 nM and 1.14 nM
same,"EC50, MEAN (% KO)",[9]; L-->M mutations series,108.08 % KO
same,EC50,[9]; [22],3.83 nM
same,"EC50 (% of aqp2/aqp3 null), MEAN","[10]; +AQP2-WT, L-->W mutations series, 3 repeats",79.71 % of aqp2/aqp3 null
same,"EC50, MEAN (% KO)","[10]; +AQP2, L-->M mutations series",87.81 % KO
same,"EC50, percent of AQP2/3 null EC50",[10]; +AQP2 WT (sensitive control),92.91% and 101.19% and 88.19%
same,"EC50 as percent of AQP2/3 null EC50, MEAN","[10]; Fig. 2F, I110W/L264R set",104.03%
same,"EC50 as percent of AQP2/3 null EC50, MEAN","[10]; Fig. 2H, AQP3-WT set",96.15%
same,"EC50 as percent of AQP2/3 null EC50, MEAN","[10]; Fig. 2H, AQP3 W102I/R256L set",104.03%
same,"EC50 as percent of AQP2/3 null EC50, MEAN",[10]; [20],104.03%
same,"EC50 as percent of AQP2/3 null EC50, MEAN","[10]; Fig. 3B, TbAQP2(I190T) set",101.687%
same,"EC50 as percent of AQP2/3 null EC50, MEAN","[10]; Fig. 3C, TbAQP2(W192G) set",101.687%
same,"EC50 as percent of AQP2/3 null EC50, MEAN",[10]; [21],93.019%
same,EC50,"[10]; read-out: EC50, MEAN, +AQP2-WT, L-->W mutations series, 3 repeats",1.41 nM
same,EC50,"[10]; read-out: EC50, MEAN, +AQP2, L-->M mutations series",3.73 nM
same,EC50,"[10]; read-out: EC50, single repeats, +AQP2-WT, L-->W mutations series",1.94 nM and 0.993 nM and 1.31 nM
same,"EC50 as percent of AQP2/3 null EC50, MEAN",[11],97.54%
same,"EC50 (% of aqp2/aqp3 null), MEAN",[12]; [23],93.25 % of aqp2/aqp3 null
same,EC50,[12]; [24],1.65 nM
same,EC50,[12]; [25],1.98 nM and 1.93 nM and 1.05 nM
same,"EC50, MEAN (% KO)",[13]; L-->M mutations series,87.08 % KO
same,EC50,[13]; [22],4.45 nM
same,"EC50 (% of aqp2/aqp3 null), MEAN",[14]; [23],89.58 % of aqp2/aqp3 null
same,EC50,[14]; [24],1.59 nM
same,EC50,[14]; [25],2.04 nM and 1.14 nM and 1.59 nM
same,"EC50 as percent of AQP2/3 null EC50, MEAN",[15],100.59%
same,"EC50, percent of AQP2/3 null EC50",[16],94.80%
same,"EC50 as percent of AQP2/3 null EC50, MEAN",[17],101.37%
same,"EC50 as percent of AQP2/3 null EC50, MEAN",[18],98.44%
same,"EC50 as percent of AQP2/3 null EC50, MEAN",[19],105.67%

# Where “and” joins values, the source holds several entries; their conditions need not be identical. Identical values can stand only once. Like-named read-outs stand apart in the source and are kept apart here.
